PubChem BioAssay AID624099 | ICCB-Longwood, 2012
Test: 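Human genes that papillomavirus E2 requires to repress the HPV18 LCR promoter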 (primary screen). Cells: human C33A cervical carcinoma cells (HPV-negative) stably expressing BPV1 E2 and an HPV18 LCR luciferase reporter. Reagent: siRNA pool against human genes, 40 nM. Duration: 72 h. Measurement: 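Per-well luciferase luminescence, z-scored on each plate against the plate mean and SD with control wells left out, then averaged across three replicate plates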. Direction: mean z-score and z-score: higher = stronger reporter signal, weaker E2 silencing. Rule for the call: 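Mean z ≥ 2 together with z ≥ 2 in two or more of the three replicates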.
The deposit covers about 21,000 reagents; below is an unselected part. 497 of them (2.4%) were called active. 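Higher z means weaker E2 silencing; only reporter increases were scored, and knock-downs that hurt cell survival may mask genuine repressor factors.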 The numbers tell different reagents against one gene apart.

SCARA5 | mean z-score = -1.48; z-score, replicate A = -1.55; z-score, replicate B = -1.52; z-score, replicate C = -1.38; Call = inactive
TMED5 | mean z-score = 0.09; z-score, replicate A = 0.35; z-score, replicate B = -0.18; z-score, replicate C = 0.11; Call = inactive
PCDH18 | mean z-score = -0.02; z-score, replicate A = 0.58; z-score, replicate B = -0.12; z-score, replicate C = -0.51; Call = inactive
RBPMS | mean z-score = -0.74; z-score, replicate A = -0.55; z-score, replicate B = -0.82; z-score, replicate C = -0.84; Call = inactive
HOTAIR | mean z-score = 2.43; z-score, replicate A = 2.09; z-score, replicate B = 2.81; z-score, replicate C = 2.38; Call = active
TMEM233 | mean z-score = -0.24; z-score, replicate A = -0.21; z-score, replicate B = -0.16; z-score, replicate C = -0.36; Call = inactive
SCN1B | mean z-score = 0.66; z-score, replicate A = 0.65; z-score, replicate B = 0.62; z-score, replicate C = 0.71; Call = inactive
ST6GALNAC6 | mean z-score = -0.81; z-score, replicate A = -0.9; z-score, replicate B = -0.94; z-score, replicate C = -0.59; Call = inactive
ANKRD30BP2 | mean z-score = 1.64; z-score, replicate A = 1.92; z-score, replicate B = 1.75; z-score, replicate C = 1.26; Call = inactive
ATXN7L2 | mean z-score = 0.16; z-score, replicate A = -0.03; z-score, replicate B = 0.4; z-score, replicate C = 0.1; Call = inactive
RAI14 | mean z-score = 0.12; z-score, replicate A = -0.02; z-score, replicate B = 0.42; z-score, replicate C = -0.04; Call = inactive
CCDC57 #1 | mean z-score = 0.18; z-score, replicate A = 0.15; z-score, replicate B = 0.45; z-score, replicate C = -0.06; Call = inactive
CCDC57 #2 | mean z-score = 0.15; z-score, replicate B = 0.27; z-score, replicate C = 0.03; Call = inactive
DNMT3B | mean z-score = -1.31; z-score, replicate A = -0.69; z-score, replicate B = -1.84; z-score, replicate C = -1.4; Call = inactive
N4BP2L2 #1 | mean z-score = 0.27; z-score, replicate A = 0.09; z-score, replicate B = 0.07; z-score, replicate C = 0.63; Call = inactive
N4BP2L2 #2 | mean z-score = 0.56; z-score, replicate A = 0.43; z-score, replicate B = 0.62; z-score, replicate C = 0.63; Call = inactive
GUSBP4 | mean z-score = 1.13; z-score, replicate A = 0.89; z-score, replicate B = 1.53; z-score, replicate C = 0.96; Call = inactive
MARCHF1 | mean z-score = -0.35; z-score, replicate A = -0.18; z-score, replicate B = -0.11; z-score, replicate C = -0.74; Call = inactive
MAT1A | mean z-score = 0.6; z-score, replicate A = 0.39; z-score, replicate B = 0.54; z-score, replicate C = 0.86; Call = inactive
CCDC184 | mean z-score = -0.96; z-score, replicate A = -1.09; z-score, replicate B = -0.77; z-score, replicate C = -1.02; Call = inactive
HTR1D | mean z-score = 0.18; z-score, replicate A = 0.28; z-score, replicate B = 0.09; z-score, replicate C = 0.16; Call = inactive

No new results follow: 4 of the entries above.
PCDH18 | mean z-score = -0.02; z-score, replicate A = 0.58; z-score, replicate B = -0.12; z-score, replicate C = -0.51; Call = inactive
RBPMS | mean z-score = -0.74; z-score, replicate A = -0.55; z-score, replicate B = -0.82; z-score, replicate C = -0.84; Call = inactive
HOTAIR | mean z-score = 2.43; z-score, replicate A = 2.09; z-score, replicate B = 2.81; z-score, replicate C = 2.38; Call = active
TMEM233 | mean z-score = -0.24; z-score, replicate A = -0.21; z-score, replicate B = -0.16; z-score, replicate C = -0.36; Call = inactive
